According to patent US20060292076A1, “Antimicrobial mediated ozone generation” (priority 2002, published 2006):
“Also recorded” adds a separate entry of the source.

Legend:
[1] = Oxidation of indigo carmine 1 and ^18O incorporation into cyclic α-ketoamide 2 by different reactive oxygen species
[2] = Oxygen isotope experiments (^16O/^18O in H2O2 by TCEP reduction and MS); type: biochemical; details: photo-oxidation in H2^18O

With O=O [^1O2*, singlet oxygen] the “^18O incorporation into 2” value ([1]; H2^18O PB) was “no”.

With Cc1c[nH]c2ccccc12 [3-methylindole] the “^18O incorporation into the H2O2” value [2] was “negligible; also recorded: does not include oxygen incorporation”.

In the case of [Na+].[O-]Cl [NaOCl], the “cleavage of the double bond of 1 to yield isatin sulfonic acid 2” value ([1]; NaOCl 2 mM, 1 100 μM, PBS pH 7.4) is reported as “did not cleave the double bond; also recorded: does not cleave the double bond”.
